PubChem BioAssay AID1224833 | University of Georgia, 2016

- Purpose: 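Host factors restraining rotavirus as candidate antiviral genes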 (primary screen)
- Cell system: monkey MA104 kidney cells
- Reagents: siRNA pool against human genes, 50 nM
- Time to read-out: 48 h knock-down before infection; read 24 h after infection
- Conditions: infection with rotavirus strain RV3 two days after transfection; infectious dose for this stage not given
- Measured: 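Rotavirus antigen per well by fluorescent immunoassay, normalised to non-targeting control wells on each plate and given as a standard z-score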
- Direction: z-score vs non-targeting control: higher = more rotavirus replication than with non-targeting control
- Rule for the call: In these data the active calls have z-score vs non-targeting control at about -1 or lower, or at about 1 or higher
- Calls: active = z-score beyond 1 either way; inactive = z-score within 1 of zero
Shown is a random part of about 12,000 deposited reagents. About 5,600 of all reagents (46%) were called active. 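Active calls cover z-scores past 1 in both directions, so they include lowered as well as raised rotavirus replication.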

OR51M1 | z-score vs non-targeting control = 2.38; call = active
FANCF | z-score vs non-targeting control = -0.91; call = inactive
RHO | z-score vs non-targeting control = 1.07; call = active
LRRC4B | z-score vs non-targeting control = 1.42; call = active
SOX2 | z-score vs non-targeting control = 1.95; call = active
TMSB10 | z-score vs non-targeting control = -1.58; call = active
ZNF322 | z-score vs non-targeting control = -1.89; call = active
CYBC1 | z-score vs non-targeting control = 1.46; call = active
OLFM1 | z-score vs non-targeting control = 0.641; call = inactive
BSN | z-score vs non-targeting control = 1.35; call = active
POLQ | z-score vs non-targeting control = -1.47; call = active
SMARCAL1 | z-score vs non-targeting control = -1.44; call = active
DSC3 | z-score vs non-targeting control = -0.518; call = inactive
RHOT1 | z-score vs non-targeting control = -1.17; call = active
TP53INP2 | z-score vs non-targeting control = -0.102; call = inactive
AKR1C1 | z-score vs non-targeting control = -1.22; call = active
SEMA3B | z-score vs non-targeting control = 0.408; call = inactive
ALOX5AP | z-score vs non-targeting control = -1.07; call = active
TTC6 | z-score vs non-targeting control = 0.173; call = inactive
POLR3B | z-score vs non-targeting control = -0.805; call = inactive
NPR1 | z-score vs non-targeting control = -0.783; call = inactive
CDH22 | z-score vs non-targeting control = -0.398; call = inactive
TYMP | z-score vs non-targeting control = -0.87; call = inactive
SPDYC | z-score vs non-targeting control = 2.27; call = active
ZNF875 | z-score vs non-targeting control = -0.0923; call = inactive
CRYAB | z-score vs non-targeting control = 0.146; call = inactive
CENPB | z-score vs non-targeting control = -0.957; call = inactive
OR5A1 | z-score vs non-targeting control = -0.252; call = inactive
CPT1A | z-score vs non-targeting control = 2.05; call = active
PRND | z-score vs non-targeting control = -2.17; call = active
UNC13C | z-score vs non-targeting control = -1.3; call = active
ACAP3 | z-score vs non-targeting control = 1.17; call = active
CDS2 | z-score vs non-targeting control = -1.45; call = active
LRIG2 | z-score vs non-targeting control = 0.741; call = inactive
NIN | z-score vs non-targeting control = -2.82; call = active
SAE1 | z-score vs non-targeting control = -1.04; call = active
ELP2 | z-score vs non-targeting control = -0.905; call = inactive
TTLL10 | z-score vs non-targeting control = 0.989; call = inactive
ERAP2 | z-score vs non-targeting control = 1.42; call = active
BOC | z-score vs non-targeting control = -0.0331; call = inactive
WNT2 | z-score vs non-targeting control = 0.316; call = inactive
DHX33 | z-score vs non-targeting control = -0.559; call = inactive
MAGEA10 | z-score vs non-targeting control = 0.576; call = inactive
FTSJ1 | z-score vs non-targeting control = -1.1; call = active
BABAM2 | z-score vs non-targeting control = -1.3; call = active
TLR3 | z-score vs non-targeting control = -0.54; call = inactive
WDR5 | z-score vs non-targeting control = -0.495; call = inactive
LARS2 | z-score vs non-targeting control = -0.756; call = inactive
SLC25A31 | z-score vs non-targeting control = -1.5; call = active
GAL3ST2 | z-score vs non-targeting control = -1.12; call = active
ASIP | z-score vs non-targeting control = -0.995; call = inactive
MROH7 | z-score vs non-targeting control = 0.958; call = inactive
ENPP3 | z-score vs non-targeting control = -0.725; call = inactive
USP14 | z-score vs non-targeting control = -0.544; call = inactive
ZNF175 | z-score vs non-targeting control = -4.73; call = active
OR4N5 | z-score vs non-targeting control = -1.12; call = active
LDHAL6B | z-score vs non-targeting control = -1.63; call = active
RTTN | z-score vs non-targeting control = -0.331; call = inactive
S100A7P3 | z-score vs non-targeting control = 1.84; call = active
INTS1 | z-score vs non-targeting control = -1.15; call = active

5 entries from above, reformatted:
Gene,z-score vs non-targeting control,call
MROH7,0.958,inactive
ENPP3,-0.725,inactive
USP14,-0.544,inactive
ZNF175,-4.73,active
OR4N5,-1.12,active
